# In ChEMBL document CHEMBL1148773 (J Med Chem, 2007):
# Target: Protease (Human immunodeficiency virus 1, UniProt Q9YQ12)
# Test: Inhibition of wild type HIV1 protease
smiles,measurement,value
CC(C)CN(C[C@@H](O)[C@H](Cc1ccccc1)NC(=O)O[C@H]1CO[C@H]2OCC[C@H]21)S(=O)(=O)c1ccc2c(c1)OCO2,Ki,0.27 nM
